# Columns and labels:
# Type in all cases: in vivo
# [1] = tested on: Meloidogyne graminicola; experiment: Meloidogyne graminicola infection in rice, first experiment (Example 3); details: infected rice; 100 μM; harvested twelve days after infection; median (IQR); n = 8
# Description: (§1) Seeds were germinated on wet tissue paper at 30° C. in the dark for three days, followed by transfer to individual PVC tubes (for nematode infection) containing SAP (Reversat et al., 1999). SAP (sand-absorbent polymer) is a mixture of fine silica sand and ultra-absorbent acrylic copolymer (DCM AquaPerla, DSM, Grobbendonk, Belgium) in a ratio of 1 kg sand to 1.5 g of dry copolymer.
# (§2) Before use, each tube was washed in soapy water and dried in an oven at 70° C. for two days. […] The first two days after transfer, the tubes were covered with a polyethylene film (Saran Film, Dow Chemicals, Midland, USA) to prevent excessive evaporation. Seedlings were watered three times per week with 8 ml of Hoagland solution (Hoagland, 1938).
# M. graminicola was extracted from infected Echinocloa crus-galli roots grown in potting soil at 25° C. Roots were washed until most soil was removed, after which they were cut into short fragments (with special care taken to cut open any outwardly visible galls). The cut material was put in […] pore diameter sieves which were put into a tap water bath at room temperature for three days. The water was then poured over a […] mesh sieve. The sieve surface was washed with approximately 50 ml of non-demineralized water, which was collected into a beaker before it could seep through the sieve.
# The number of nematodes in five 100 μl samples taken from the nematode suspension was counted under a stereo microscope and averaged to determine inoculum concentration. Each plant (grown per the protocol outlined in the previous section) was then inoculated by injecting the desired number of nematodes in the SAP surrounding the root system using a micro-pipette.
# (§3) Infection experiments with M. graminicola were performed by inoculating host plants 14 days after transfer to SAP by introducing the desired amount of J2 juveniles next to the root system using a micro pipette. Rice plants (cv. Nipponbare or Kitaake) were inoculated with 250 J2 juveniles per plant; wheat plants (cv. Sahara) were inoculated with 600 J2 juveniles per plant. Plants were harvested 14 days after inoculation. At this point, the plants were phenotyped by measuring the shoot and root length with a ruler, counting the number of adventitious roots and in some experiments by measuring leaf area using the EasyLeafArea software (Easlon and Bloom, 2014) and by determining shoot dry mass after 72 hours of drying in an oven at 70° C. Root systems were then stained in acid fuchsine as described in (Byrd et al., 1983) and left to destain in glycerol with 1 ml/l fuming HCl added for approximately ten days. The number of galls and nematodes was then counted using a binocular microscope.
# Rice plants were germinated for three days, transferred to SAP and grown for twelve days. After twelve days, 240 M. graminicola J2 nematodes on average were added to each plant. Plants were harvested twelve days after infection and roots were stained with acid fuchsine to visualize galls and nematodes.
# [2] = tested on: Heterodera schachtii; experiment: Heterodera schachtii infection in sugar beet (Example 9); details: infected sugar beet; 10 μM PA; mean ± SD; n = 8
# Description: Sugar beet seeds (cultivar Jolgeh) were germinated for five days at 25° C. on sterile potting soil saturated with distilled water. Seedlings were transferred to SAP tubes, which were placed in a growth chamber at 24° C. (16h per day of fluorescent lighting). The first two days after transfer, the tubes were covered with a polyethylene film (Saran Film, Dow Chemicals, Midland, USA) to prevent excessive evaporation. Seedlings were watered three times per week with 8 ml of Hoagland solution.
# Cysts were collected from sugar beets (cv. Jolgeh) kept in a growing chamber at 21° C. through a flotation protocol. Plant roots and their surrounding soil were placed in a water bath at room temperature and gently agitated, followed by decanting and sieving to allow collection of cysts. Cysts were are-dried for two days and stored until use.
# Hatching of cysts was induced by exposing them to a zinc chloride solution (3 mM in distilled water) at 25° C. for three days. Five 100 μl samples were taken from this suspension. The number of J2 juveniles in each sample was counted and the results were averaged. […]
# Infection experiments with H. schachtii were performed by inoculating host plants 14 days after transfer to SAP by introducing 250 J2 juveniles to their root system using a micro pipette. […] Cysts were collected through a sucrose flotation protocol and then counted and microscopically assessed for maturity. […]
# [3] = tested on: Pratylenchus penetrans; experiment: Pratylenchus penetrans infection in wheat cv. Sahara (Example 10); details: infected wheat; PA foliar spray; mean ± SD; n = 8
# Description: For Examples 1, 5 and 10, seeds of the winter wheat cultivar Sahara (Aveve Agrarisch, Landen, Belgium) were used. Seeds were washed in a 10% ethanol solution to remove any residual traces of fungicide and then germinated on wet paper at room temperature for four days; seeds were transferred to SAP tubes and placed in a growth chamber (25° C., 16 hours per day of light). Plants were watered with 8 ml of half-strength Hoagland solution every two days for the first ten days and with 8 ml of full strength Hoagland solution every two days afterwards.
# A pure culture of P. penetrans grown on carrot disks was kindly provided by Giuseppi Lucarelli (Horto Service, Noicattaro, Italy). […]
# Infection experiments with P. penetrans were performed by inoculating host plants 14 days after transfer to SAP by introducing 500 nematodes to their root system using a micro pipette. […] Lesions were counted manually using a magnifying glass after washing and spreading open the root system. Nematodes were counted by macerating the root systems with a kitchen blender, placing a root system in 30 ml of autoclaved tap water for 24 hours and finally counting the number of nematodes in four 500 μl aliquots from each 30 ml root suspension under a binocular microscope.
# [4] = tested on: Meloidogyne graminicola; experiment: Application regimens of PA, rice - Meloidogyne graminicola (Example 8)
# Description: Seed coatings were applied by dipping seeds in a coating solution containing 20 g/I high viscosity carboxymethylcellulose (Sigma-Aldrich, Saint Louis, USA) in distilled water as well as 300 μM of the target compound. Seeds were then dried overnight at room temperature.
# as §3
# Four application regimes for PA on the rice-Meloidogyne graminicola interaction were compared: a seed coating treatment, a single high-dose foliar spray prior to infection, a single high-dose foliar spray after infection and repeated lower-dose foliar sprays throughout the growing period.
# One hundred rice seeds (cv. Nipponbare) were randomly divided into five groups of twenty seeds: a control group, seeds that were coated with carboxymethylcellulose containing 300 μM PA (PA coating), a group that would be foliarly sprayed with 100 μM PA solution three times per week (PA continuous), a group that would be sprayed once with a 300 μM PA solution one day prior to nematode inoculation (PA−1 dpi) and a group that would be sprayed once with a 300 μM PA solution seven days after nematode inoculation (PA+7 dpi).
# The experiment was carried out as per the materials and methods described in Materials and Methods, sections Oryza sativa (rice) and Meloidogyne graminicola culture.
# [5] = tested on: Meloidogyne graminicola; experiment: Meloidogyne graminicola infection in rice, second experiment (Example 4); details: infected rice; 100 μM; ratio of cell wall mass to total dry mass; median (IQR)
# Description: as §1, §2
# M. graminicola was extracted from infected Echinocloa crus-galli roots grown in potting soil at 25° C. […]
# The number of nematodes in five 100 μl samples taken from the nematode suspension was counted under a stereo microscope and averaged to determine inoculum concentration. […]
# Infection experiments with M. graminicola were performed by inoculating host plants 14 days after transfer to SAP by introducing the desired amount of J2 juveniles next to the root system using a micro pipette. […] The number of galls and nematodes was then counted using a binocular microscope. […]
# [6] = PA +7 dpi: sprayed once with 300 μM PA seven days after inoculation, n = 8
# [7] = PA coating: seeds coated with carboxymethylcellulose solution containing 300 μM PA, n = 7
# [8] = PA continuous: sprayed three times a week with 100 μM PA, n = 9
# [9] = PA −1 dpi: sprayed once with 300 μM PA one day before inoculation, n = 8
smiles,measurement,setting,value
"O=C(O)c1ccc2c(c1)OCO2 [PA, Piperonylic acid]",Root length,[1],19.5 (IQR = 2.3) cm
same,Root number,[1],14.0 (IQR = 1.3)
same,Shoot length,[1],51.3 (IQR = 1.8) cm
same,Root length,[2],20.4 ± 1.7 cm
same,Shoot length,[2],20.9 ± 3.4 cm
same,Root length,[3],23.1 ± 5.6 cm
same,Shoot dry mass,[3],225.3 ± 24.6 mg
same,BBCH stage,[4]; [6],15.6 ± 0.5
same,Number of AR,[4]; [6],15.3 ± 7.0
same,Root length,[4]; [6],12.5 ± 6.8 cm
same,Shoot length,[4]; [6],34.3 ± 12.5 cm
same,BBCH stage,[4]; [7],15.8 ± 0.5
same,Number of AR,[4]; [7],13.3 ± 3.2
same,Root length,[4]; [7],14.0 ± 5.9 cm
same,Shoot length,[4]; [7],32.9 ± 9.8 cm
same,BBCH stage,[4]; [8],15.6 ± 0.5
same,Number of AR,[4]; [8],13.8 ± 3.3
same,Root length,[4]; [8],11.9 ± 4.1 cm
same,Shoot length,[4]; [8],32.9 ± 7.2 cm
same,BBCH stage,[4]; [9],15.8 ± 0.7
same,Number of AR,[4]; [9],18.3 ± 5.5
same,Root length,[4]; [9],14.8 ± 5.7 cm
same,Shoot length,[4]; [9],39.0 ± 9.2 cm
same,Shoot CWR,[5],0.64 (IQR = 0.03) %
"O=C(O)/C=C/c1ccc2c(c1)OCO2 [MDCA, 3,4-methylenedioxycinnamic acid]",Root length,[1],18.0 (IQR = 2.7) cm
same,Root number,[1],13.5 (IQR = 2.0)
same,Shoot length,[1],50.4 (IQR = 2.7) cm
same,Shoot CWR,[5],0.65 (IQR = 0.03) %

# Reference: patent publication US11992011B2, “Compounds for controlling plant pathogens” (VIB VZW, priority 2017, dated 2024)
